Source: PMC8026400, “Osmium–arene complexes with high potency towards Mycobacterium tuberculosis” (Metallomics: Integrated Biometal Science, 2021)

Columns and labels:
Mtb H37Rv cells = test: Os uptake in Mtb (ICP-MS, normalized to P); type: cell-based, Mycobacterium tuberculosis; details: for Temperature-dependent Os accumulation: no shaking; for Temperature-dependent Os accumulation / Time-dependent Os accumulation: 0.5× MIC; for Time-dependent Os accumulation: shaking
mammalian cells = system: mammalian cells; set-up: method as in PMID 31528927; details: cited from earlier work

## CN(C)c1ccc(N=Nc2ccccn2)cc1.Cc1ccc(C(C)C)cc1.F[P-](F)(F)(F)(F)F.[I][Os+] [Complex 2, [Os(AzPy-NMe2)I(p-cymene)]PF6]
Mtb H37Rv cells; 0 h, 277 K
  Temperature-dependent Os accumulation: 0.000 ± 0.009 µg Os / mg P
Mtb H37Rv cells; 0 h, 310 K
  Temperature-dependent Os accumulation: 0.02 ± 0.02 µg Os / mg P
  Time-dependent Os accumulation: 0 ± 0.009 µg Os / mg P
Mtb H37Rv cells; 0.625 µM (0.5× MIC), 310 K, without shaking
  time of Os accumulation maximum: ~17 h
Mtb H37Rv cells; 1.5 h, 277 K
  Temperature-dependent Os accumulation: 0.024 ± 0.001 µg Os / mg P
Mtb H37Rv cells; 1.5 h, 310 K
  Temperature-dependent Os accumulation: 0.19 ± 0.02 µg Os / mg P
  Time-dependent Os accumulation: 0.287 ± 0.009 µg Os / mg P
Mtb H37Rv cells; 3 h, 277 K
  Temperature-dependent Os accumulation: 0.030 ± 0.005 µg Os / mg P
Mtb H37Rv cells; 3 h, 310 K
  Temperature-dependent Os accumulation: 0.27 ± 0.02 µg Os / mg P
  Time-dependent Os accumulation: 0.51 ± 0.04 µg Os / mg P
Mtb H37Rv cells; 5 h, 277 K
  Temperature-dependent Os accumulation: 0.033 ± 0.005 µg Os / mg P
Mtb H37Rv cells; 5 h, 310 K
  Temperature-dependent Os accumulation: 0.31 ± 0.03 µg Os / mg P
  Time-dependent Os accumulation: 0.67 ± 0.01 µg Os / mg P
Mtb H37Rv cells; 7 h, 277 K
  Temperature-dependent Os accumulation: 0.052 ± 0.005 µg Os / mg P
Mtb H37Rv cells; 7 h, 310 K
  Temperature-dependent Os accumulation: 0.36 ± 0.01 µg Os / mg P
  Time-dependent Os accumulation: 0.64 ± 0.02 µg Os / mg P
Mtb H37Rv cells; 17 h, 277 K
  Temperature-dependent Os accumulation: 0.12 ± 0.02 µg Os / mg P
Mtb H37Rv cells; 17 h, 310 K
  Temperature-dependent Os accumulation: 0.37 ± 0.01 µg Os / mg P
  Time-dependent Os accumulation: 0.39 ± 0.05 µg Os / mg P
Mtb H37Rv cells; 20 h, 277 K
  Temperature-dependent Os accumulation: 0.14 ± 0.02 µg Os / mg P
Mtb H37Rv cells; 20 h, 310 K
  Temperature-dependent Os accumulation: 0.38 ± 0.04 µg Os / mg P
  Time-dependent Os accumulation: 0.30 ± 0.01 µg Os / mg P
Mtb H37Rv cells; 24 h (1 day), 310 K
  Time-dependent Os accumulation: 0.24 ± 0.02 µg Os / mg P
Mtb H37Rv cells; 24 h, 277 K
  Temperature-dependent Os accumulation: 0.211 ± 0.004 µg Os / mg P
Mtb H37Rv cells; 24 h, 310 K
  Temperature-dependent Os accumulation: 0.37 ± 0.05 µg Os / mg P
Mtb H37Rv cells; 168 h (7 days), 310 K
  Time-dependent Os accumulation: 0.02 ± 0.02 µg Os / mg P
Mammalian cells; 277 K
  decrease of intracellular Os accumulation compared with 310 K: 31 fold
Mammalian cells; 296 K
  decrease of intracellular Os accumulation compared with 310 K: 4 fold

Read-outs that look alike come from different tables or passages of the source.
